A mixed list of measured activities; the numbers were collected in NIAID ChemDB.

Shared fields: target-level tests; agent: Hepatitis C virus

Neighbouring rows are from separate reports. Percent inhibition refers to the dose given; in toxicity tests it is the harm to the cells. An empty or dashed field is not shown. a–b is a range or a potency band. ICn: concentration for n% inhibition.

SMILES,read by,measure,tested at,strain,target,value
O=C(O)CCN(CCC(c1ccccc1)c1ccccc1)C(=O)[C@@H](NC(=O)[C@@H]1CCCC[C@H]1C(=O)O)c1ccc(Br)cc1,-,IC50,-,-,NS3/NS4A protease,2 µM
CC1CCC(C(=O)N(c2cc(-c3ccccc3)sc2C(=O)O)C2COCOC2)CC1,-,IC50,-,-,NS3 ATPase,<5 µM
CC(=O)N[C@@H](CC(=O)O)C(=O)N[C@H](CC(C(=O)O)C(=O)O)C(=O)N[C@H](C(=O)N[C@@H](CC(=O)O)C(=O)N[C@@H](CC1CCCCC1)C(=O)N[C@@H](CS)C(=O)C(=O)O)C(c1ccccc1)c1ccccc1,-,Ki,-,-,NS3/NS4A serine protease,0.00002 µM
COC(=O)c1sc(-c2ccccc2)cc1NC(=O)c1ccccc1C(=O)O,-,IC50,-,-,NS3 ATPase,5–20 µM
C=C/C=C\C=C/CC(NC(=O)[C@H](CCC(=O)O)NC(=O)[C@@H](N)CC(=O)O)C(=O)N[C@@H](CCC(=O)O)C(=O)N[C@@H](CC1CCCCC1)C(=O)N[C@@H](CS)C(=O)O,-,IC50,-,-,NS3 protease,0.12 µM
CCC1CC1(NC(=O)[C@@H]1C[C@@H](OCc2cccc3ccccc23)CN1C(=O)[C@@H](NC(=O)OC(C)(C)C)C1CCCCC1)C(=O)O,-,IC50,-,-,HCV NS3/NS4A protease,15 µM
CC(=O)N[C@@H](CC(=O)O)C(=O)N[C@H](CC(C(=O)O)C(=O)O)C(=O)N[C@H](C(=O)N[C@@H](CCC(=O)O)C(=O)N[C@H](C(=O)N[C@@H](CS)C(=O)C(=O)O)c1ccccc1)C(c1ccccc1)c1ccccc1,-,Ki,-,-,NS3/NS4A serine protease,0.00009 µM
C=CCN(CC(=O)O)C(=O)[C@H](CCC(=O)O)NC(=O)[C@H](CCC(=O)O)NC(=O)[C@H](CCSC)NC(=O)[C@H](CCC(=O)O)NC(=O)[C@@H](N)CC(=O)O,-,IC50,-,-,NS3 protease,12 µM
CC(=O)N[C@@H](CC(=O)O)C(=O)N[C@H](CC(C(=O)O)C(=O)O)C(=O)N[C@H](C(=O)N[C@@H](CCC(=O)O)C(=O)N[C@@H](CC(C)C)C(=O)N[C@@H](CS)C(=O)C(=O)O)C(c1ccccc1)c1ccccc1,-,Ki,-,-,NS3/NS4A serine protease,0.0001 µM
C=C[C@@H]1C[C@]1(NC(=O)[C@@H]1C[C@@H](Oc2nccc3ccc(Br)cc23)CN1C(C)=O)C(=O)NS(=O)(=O)C1CC1,FRET,IC50,-,1b R155K,Nonstructural protein 3/4A,>3 µM
CC(C)C(=O)N(Cc1ccccc1Cl)c1cc(-c2ccccc2)sc1C(=O)O,-,IC50,-,-,NS3 ATPase,5–20 µM
CCCC[C@H](NC(=O)[C@H](CCC(=O)O)NC(=O)[C@@H](N)CC(=O)O)C(=O)N[C@@H](CCC(=O)O)C(=O)N[C@@H](CC1CCCCC1)C(=O)N[C@@H](CS)C(=O)O,-,IC50,-,-,NS3 protease,0.22 µM
CN(C)CCNc1cc(C(=O)Nc2ccc3nc[nH]c3c2)c(F)cc1F,-,IC50,-,-,NS5B polymerase,>0.1 µg/mL
CCC[C@H](NC(=O)C1C[C@@H](OC(=O)N2CCc3ccccc3C2)CN1C(=O)[C@@H](NC(=O)[C@@H](NC(=O)c1cnccn1)C(C)C)C(C)C)C(=O)C(=O)N1CCC1,-,Ki,-,-,HCV NS3 protease,<1 µM
CC(=O)N[C@@H](CC(=O)O)C(=O)N[C@@H](CCC(=O)O)C(=O)N[C@H](C(=O)N[C@@H](CCC(=O)O)C(=O)N[C@H](C(=O)O)C1CCCCC1)C(c1ccccc1)c1ccccc1,-,IC50,-,-,NS3/NS4A protease,117 µM
C[C@@]1(O)[C@H](O)[C@@H](CO)O[C@H]1C1C=Nc2c(N)ncn[n+]21,-,IC50,-,GT1b,NS5B TP,2.1 µM
CC(=O)N[C@@H](CC(=O)O)C(=O)N[C@H](Cc1ccccc1)C(=O)N[C@@H](CC(C)C)C(=O)N[C@@H](CCC(=O)O)C(=O)N[C@@H](CC1CCCCC1)C(=O)N[C@@H](CS)C(=O)O,-,IC50,-,-,HCV NS3 protease,0.82 µM
CSCC[C@H](NC(=O)[C@H](CCC(=O)O)NC(=O)[C@@H](CC(=O)O)NC(C)=O)C(=O)N[C@@H](CCC(=O)O)C(=O)N[C@@H](CCC(=O)O)C(=O)N[C@@H](CS)C(=O)O,-,IC50,-,-,NS3/NS4A protease,1 µM
CC(=O)N[C@@H](CC(=O)O)C(=O)N[C@@H](Cc1ccc(O)cc1)C(=O)N[C@H](C(=O)N[C@@H](CCC(=O)O)C(=O)N[C@@H](CC1CCCCC1)C(=O)N[C@@H](CS)C(=O)C(=O)O)C(c1ccccc1)c1ccccc1,-,Ki,-,-,NS3/NS4A serine protease,145 µM
CC(=O)N[C@@H](CCC(=O)O)C(=O)N[C@@H](CC(=O)O)C(=O)N[C@H](C(=O)N[C@H](C(=O)N[C@@H](CS)C(=O)N[C@@H](CS)C(=O)O)C(C)C)C(C)C,-,IC50,-,-,HCV NS3 protease,5.3 µM
C=CC1CCC1(NC(=O)[C@@H]1C[C@@H](Oc2cc(-c3ccccc3)nc3cc(OC)ccc23)CN1C(=O)[C@@H](NC(=O)OC(C)(C)C)C(C)(C)C)C(=O)O,-,IC50,-,-,HCV NS3/NS4A protease,0.22 µM
CSCC[C@H](NC(=O)[C@H](CCC(=O)O)NC(=O)[C@@H](N)CC(=O)O)C(=O)N[C@@H](CCC(=O)O)C(=O)N[C@@H](CCC(=O)O)C(=O)N[C@H](CS)C(=O)O,-,IC50,-,-,NS3 protease,4 µM
CC(C)N(C(=O)C1CCCCC1)c1cc(-c2ccccc2)sc1C(=O)O,-,IC50,-,-,NS3 ATPase,5–20 µM
C=C[C@H]1CC1(NC(=O)[C@@H]1C[C@@H](Oc2cc(-c3ccccc3)nc3cc(OC)ccc23)CN1C(=O)[C@@H](Nc1nc(CC)cs1)C(C)(C)C)C(=O)O,-,IC50,-,-,HCV NS3/NS4A protease,0.026 µM
CC1CCC(C(=O)N(c2cc(-c3ccc(C(F)(F)F)cc3)sc2C(=O)O)C(C)C)CC1,-,IC50,-,-,NS3 ATPase,<5 µM
CC(=O)N[C@@H](CC(=O)O)C(=O)N[C@H](CC(=O)O)C(=O)N[C@@H](CC(C)C)C(=O)N[C@@H](CCC(=O)O)C(=O)N[C@@H](CC1CCCCC1)C(=O)N[C@@H](CS)C(=O)O,-,IC50,-,-,HCV NS3 protease,0.122 µM
NCc1ccc(Nc2ccc(C(F)(F)F)cc2NC(=O)c2cc(Cl)c(Cl)cc2C(=O)O)cc1,-,IC50,-,-,NS5B polymerase,1.4 µM
C=CCC(C=O)NC(=O)[C@H](CC1CCCCC1)NC(=O)[C@H](CCC(=O)O)NC(=O)[C@@H](NC(=O)[C@H](CCC(=O)O)NC(=O)[C@H](CC(=O)O)NC(C)=O)C(c1ccccc1)c1ccccc1,-,IC50,-,-,NS3/NS4A protease,0.007 µM
C=C[C@H]1CC1(NC(=O)[C@@H]1C[C@@H](Oc2cc(C)nc3ccccc23)CN1C(=O)[C@@H](NC(=O)OC(C)(C)C)C1CCCCC1)C(=O)O,-,IC50,-,-,HCV NS3/NS4A protease,2.5 µM
CC(C)N(C(=O)C1=CC[C@@H](C)CC1)c1cc(-c2ccccc2)sc1C(=O)O,-,IC50,-,-,NS3 ATPase,<5 µM
N[C@@H](CC(=O)O)C(=O)N[C@@H](CCC(=O)O)C(=O)N[C@@H](Cc1ccc(O)cc1)C(=O)N[C@@H](CCC(=O)O)C(=O)N[C@@H](CC1CCCCC1)C(=O)N[C@@H](CS)C(=O)O,-,IC50,-,-,NS3 protease,0.24 µM
CC(C)C[C@H](NC(=O)[C@H](CC(=O)O)NC(=O)[C@H](CC1CCCCC1)NC(=O)[C@@H]1CCCC[C@H]1C(=O)O)C(N)=O,-,IC50,-,-,NS3/NS4A protease,15 µM
COCCNc1nc(Nc2ccc3[nH]ncc3c2)nc(OC)n1,-,inhibition,0.1 µg/mL,-,NS5B polymerase,46%
CSCC[C@H](NC(=O)[C@H](CCC(=O)O)NC(=O)[C@@H](CC(=O)O)NC(C)=O)C(=O)N[C@@H](CCC(=O)O)C(=O)N[C@@H](CCC(=O)O)C(=O)N[C@@H](CS)C(=O)O,-,IC50,-,-,HCV NS3 protease,1 µM
N[C@@H](CC(=O)O)C(=O)N[C@@H](CCC(=O)O)C(=O)N[C@H](C(=O)N[C@@H](CCC(=O)O)C(=O)N[C@@H](CC1CCCCC1)C(=O)N[C@@H](CS)C(=O)O)C(c1ccccc1)c1ccccc1,-,IC50,-,-,NS3 protease,0.05 µM
C=C[C@H]1CC1(NC(=O)[C@@H]1C[C@@H](Oc2cc(-c3ccccn3)nc(-c3ccccn3)c2)CN1C(=O)[C@@H](Nc1ccc(C(=O)OC(C)(C)C)cc1)C(C)(C)C)C(=O)O,-,IC50,-,-,HCV NS3/NS4A protease,0.36 µM
N#Cc1ccccc1S(=O)(=O)Nc1cc(-c2ccccc2)sc1C(=O)O,-,IC50,-,-,NS3 ATPase,<5 µM
CC[C@H](NC(=O)[C@@H](NC(=O)[C@@H](NC(=O)[C@H](CC(=O)O)NC(=O)CCCC(=O)O)C(C)C)C(C)C)C(=O)N[C@@H](CS)C(=O)O,-,IC50,-,-,HCV NS3 protease,5.5 µM
C=C[C@H]1CC1(NC(=O)[C@@H]1C[C@@H](Oc2cc(-c3ccccc3)nc3ccccc23)CN1C(=O)[C@@H](NC(=O)OC(C)(C)C)C1CCCCC1)C(=O)O,-,IC50,-,-,HCV NS3/NS4A protease,14 µM

Repeating the final 2 entries:

CC[C@H](NC(=O)[C@@H](NC(=O)[C@@H](NC(=O)[C@H](CC(=O)O)NC(=O)CCCC(=O)O)C(C)C)C(C)C)C(=O)N[C@@H](CS)C(=O)O ; measure: IC50 ; target: HCV NS3 protease ; value: 5.5 µM
C=C[C@H]1CC1(NC(=O)[C@@H]1C[C@@H](Oc2cc(-c3ccccc3)nc3ccccc23)CN1C(=O)[C@@H](NC(=O)OC(C)(C)C)C1CCCCC1)C(=O)O ; measure: IC50 ; target: HCV NS3/NS4A protease ; value: 14 µM